# Conditions: 8-9 ppm, 1% NaCl water, 22-24° C., two weeks
smiles,measurement,setting,value
O=O [Dissolved Oxygen],"Corrosion rate, C1018",carbon steel,27.65 mils/year
same,"Corrosion rate, Ductile",carbon steel,34.02 mils/year
same,"Corrosion rate, pipe L80",carbon steel,37 mils/year
same,"Corrosion rate, CDA122",other materials (water pipe copper alloy),4.56 mils/year
same,"Corrosion rate, Al 6061",other materials,9.52 mils/year
same,"Corrosion rate, 17-4 PH",stainless steel,0.000 mils/year
same,"Corrosion rate, 304L",stainless steel,0.08 mils/year
same,"Corrosion rate, CA6NM",stainless steel,0.97 mils/year
same,"Corrosion rate, CD4MCUN",stainless steel,0.10 mils/year

# From US11311012B1, “Bacterial control in fermentation systems” (Clean Chemistry, Inc., priority 2017, dated 2022)
